{"sequences": {"note": "Protein sequences, listed by entry. Tags and fused reporters are not part of them.", "UniProt Q5AAJ8, whole entry, looked up": "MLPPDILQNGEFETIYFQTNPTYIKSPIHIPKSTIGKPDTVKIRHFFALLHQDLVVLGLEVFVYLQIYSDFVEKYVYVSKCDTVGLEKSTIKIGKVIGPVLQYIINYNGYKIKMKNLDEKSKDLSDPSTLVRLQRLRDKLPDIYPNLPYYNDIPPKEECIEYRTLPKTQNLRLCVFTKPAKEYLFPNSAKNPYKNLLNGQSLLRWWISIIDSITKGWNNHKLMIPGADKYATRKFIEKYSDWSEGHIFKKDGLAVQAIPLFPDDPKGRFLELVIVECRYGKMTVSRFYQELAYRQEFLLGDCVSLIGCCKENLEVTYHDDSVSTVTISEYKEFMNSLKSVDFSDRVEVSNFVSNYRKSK"}, "source": "PubChem BioAssay AID540336", "about": "(Broad Institute, 2011)", "note": "This is a selection; strong and weak results do not stand in their true shares. The source made the active and inactive calls.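 How the source made its calls: active means inhibition of at least 50% in every replicate; inconclusive means best replicate reaches 50% inhibition but some replicates fall short; inactive means the rest.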", "data": [{"target": "Histone acetyltransferase RTT109 (Candida albicans (strain SC5314 / ATCC MYA-2876)) (UniProt Q5AAJ8)", "assay": "Rtt109-Vps75 histone acetyltransferase blockade – biochemical, ThioGlo CoA-SH fluorescence, plate reader, primary screen (AID 540336)", "settings": "purified Rtt109/Vps75, ThioGlo CoA-SH fluorescence, 4 h; at 34.9 µM; active compounds read high", "values": [{"smiles": "Nc1cc(N)c2nonc2c1[N+](=O)[O-]", "inhibition": "inactive: 1.61%"}, {"smiles": "O=C(NC(Sc1ccncn1)C(Cl)(Cl)Cl)c1ccccc1", "note": "(stereo not given)", "inhibition": "inactive: 5.69%"}, {"smiles": "Oc1ccccc1CNc1ccccn1", "inhibition": "inactive: -15.5%"}, {"smiles": "COc1ccccc1OP(=O)(Nc1ccc(C)cn1)Oc1ccccc1OC", "inhibition": "inactive: -3.53%"}, {"smiles": "Clc1ccc(Cl)c(NC2=NCC(CBr)S2)c1", "note": "(stereo not given)", "inhibition": "inactive: -0.665%"}, {"smiles": "CN1CCCC(OC(=O)C(c2ccccc2)c2ccccc2)C1", "note": "(stereo not given)", "inhibition": "inactive: -1.39%"}, {"smiles": "NC(=O)c1cc([N+](=O)[O-])cc([N+](=O)[O-])c1N", "inhibition": "inactive: 14.7%"}, {"smiles": "Cc1ccc(N/C(=N/P(=O)(N2CCOCC2)N2CCOCC2)N2CCOCC2)cc1", "inhibition": "inactive: -8.25%"}, {"smiles": "CN(C(=O)Cc1ccc(Cl)c(Cl)c1)[C@H]1CCCC[C@H]1N1CCCC1", "inhibition": "inactive: 2.65%"}, {"smiles": "CC(=O)Nc1ccc(Oc2c([N+](=O)[O-])cc([N+](=O)[O-])cc2[N+](=O)[O-])cc1", "inhibition": "inactive: 4.98%"}, {"smiles": "CC(=O)Nc1ccc([As](=O)(O)O)c(O)c1", "inhibition": "inactive: 1.38%"}, {"smiles": "COC(=O)C1(C)COP(=O)(NCc2ccccc2)OC1", "note": "(stereo not given)", "inhibition": "inactive: 1.67%"}, {"smiles": "N#C/C(=C\\c1ccc(N(CCBr)CCBr)cc1)C(N)=O", "inhibition": "inactive: 6.08%"}, {"smiles": "CC(=O)c1ccc(N2CC2c2ccncc2)cc1", "note": "(stereo not given)", "inhibition": "inactive: 5.05%"}, {"smiles": "C[C@@H]1C=CCP(=O)(Oc2ccccc2)O1", "note": "(stereo not given in full)", "inhibition": "inactive: 4.44%"}, {"smiles": "C[C@H]1OP(=O)(Oc2ccccc2)C[C@@H]2O[C@@H]21", "note": "(stereo not given in full)", "inhibition": "inactive: 1.17%"}, {"smiles": "Cc1ccccc1CN(C)C(=O)COC(=O)C(O)(c1ccccc1)c1ccccc1", "inhibition": "inactive: 6.95%"}, {"smiles": "CCc1cc(O)c([N+](=O)[O-])c(C)c1[N+](=O)[O-]", "inhibition": "inactive: -2.84%"}, {"smiles": "CC(C)(C)C(=O)NC(Sc1ccccc1)C(Cl)(Cl)Cl", "note": "(stereo not given)", "inhibition": "inactive: 4.76%"}, {"smiles": "CCOc1ccc(C2=NCC(CBr)S2)cc1", "note": "(stereo not given)", "inhibition": "inactive: -11.8%"}, {"smiles": "O=P1(Nc2nc3ccc(Cl)cc3s2)COc2ccccc2O1", "note": "(stereo not given)", "inhibition": "inactive: 6.27%"}, {"smiles": "CN(C)C(=O)Oc1noc2ccccc12", "inhibition": "inactive: -9.24%"}, {"smiles": "O=c1c2cc([N+](=O)[O-])ccc2[nH]c2c([N+](=O)[O-])cc([N+](=O)[O-])cc12", "inhibition": "inactive: -1.71%"}, {"smiles": "Cc1ccccc1OP(=O)(Nc1ccccn1)Oc1ccccc1C", "inhibition": "inactive: 4.49%"}, {"smiles": "CC(NC(=O)COC(=O)C(O)(c1ccccc1)c1ccccc1)c1ccccc1", "note": "(stereo not given)", "inhibition": "inactive: 3.15%"}, {"smiles": "Cc1ccc(OP(=O)(Nc2ccccn2)Oc2ccc(C)cc2)cc1", "inhibition": "inactive: 3.88%"}, {"smiles": "CC(=O)NC(SC(=S)N(CC(C)C)CC(C)C)C(Cl)(Cl)Cl", "note": "(stereo not given)", "inhibition": "inactive: 0.595%"}, {"smiles": "COC(=O)c1cc2c(s1)N=C(c1ccccc1)N(C)P2(=O)N1CCOCC1", "note": "(stereo not given)", "inhibition": "inactive: 1.05%"}, {"smiles": "CCC(=O)N1C2C3N(C(=O)CC)C1C1N(C(=O)CC)C(C(N1C(=O)CC)N3C(=O)CC)N2C(=O)CC", "inhibition": "inactive: -14.8%"}, {"smiles": "O=C(OC1CN2CCC1CC2)c1ccccc1", "note": "(stereo not given)", "inhibition": "inactive: -9.34%"}, {"smiles": "O=P1(N(CCCl)CCCl)OCCC2CCCCN21", "note": "(stereo not given)", "inhibition": "inactive: -1.12%"}, {"smiles": "O=C(NC1CCS(=O)(=O)C1)NP(=S)(Oc1ccccc1)Oc1ccccc1", "note": "(stereo not given)", "inhibition": "inactive: -5.85%"}, {"smiles": "CCNC(=S)/N=C(\\N)N[N+](=O)[O-]", "inhibition": "inactive: -6.2%"}, {"smiles": "Cc1ccc(NP(=O)(Oc2cccc(C)c2)Oc2cccc(C)c2)nc1", "inhibition": "inactive: -4.23%"}, {"smiles": "c1ccc(-c2nn[nH]n2)c(-c2nn[nH]n2)c1", "inhibition": "inactive: -3.61%"}, {"smiles": "Nc1ccc([As](=O)(O)c2ccc([N+](=O)[O-])cc2)cc1", "inhibition": "inactive: -9.45%"}, {"smiles": "C(Cc1nn[nH]n1)Cc1nn[nH]n1", "inhibition": "inactive: -4.94%"}, {"smiles": "O=C(OC1CN2CCC1CC2)c1cccc(Cl)c1", "note": "(stereo not given)", "inhibition": "inactive: -19.6%"}, {"smiles": "O=[N+]([O-])c1ncn(CCn2cnc([N+](=O)[O-])n2)n1", "inhibition": "inactive: 18.1%"}, {"smiles": "CC(=O)NC(SC(=S)N(C)C)C(Cl)(Cl)Cl", "note": "(stereo not given)", "inhibition": "inactive: 0.139%"}, {"smiles": "O=[N+]([O-])c1ccc(O)c(/C=N/Nc2ccc([N+](=O)[O-])cc2[N+](=O)[O-])c1", "inhibition": "inactive: -0.542%"}, {"smiles": "O=[As](O)(c1ccccc1)c1ccc(O)cc1", "inhibition": "inactive: 1.09%"}, {"smiles": "C[C@H]1OP(=O)(Oc2ccccc2)[C@H](O)[C@H](O)[C@H]1N=[N+]=[N-]", "note": "(stereo not given in full)", "inhibition": "inactive: -7.53%"}, {"smiles": "O=P(Nc1nc2ccccc2s1)(c1ccccc1)c1ccccc1", "inhibition": "inactive: -2.67%"}, {"smiles": "COc1ccc(N)c([N+](=O)[O-])c1[N+](=O)[O-]", "inhibition": "inactive: 2.49%"}, {"smiles": "CN(C)C1(CNC(=O)c2ccc(Cl)c(S(N)(=O)=O)c2)CCCCC1", "inhibition": "inactive: 7.54%"}, {"smiles": "O=P(Nc1ccccn1)(c1ccc(Br)cc1)c1ccc(Br)cc1", "inhibition": "inactive: -4.43%"}, {"smiles": "c1nnnn1CCn1cnnn1", "inhibition": "inactive: -4.8%"}, {"smiles": "O=P(Nc1nccs1)(c1ccccc1)c1ccccc1", "inhibition": "inactive: 3.8%"}, {"smiles": "CC(C)C(=O)NC(Sc1ccccc1)C(Cl)(Cl)Cl", "note": "(stereo not given)", "inhibition": "inactive: 4.23%"}, {"smiles": "CC1(CBr)Cn2c(nc3ccccc3c2=O)S1", "note": "(stereo not given)", "inhibition": "inactive: 7.96%"}, {"smiles": "CN(C(=O)Cc1ccc(Cl)c(Cl)c1)[C@@H]1CCCC[C@H]1N1CCCC1", "inhibition": "inactive: -0.646%"}, {"smiles": "CC(C)/C=N\\N=C(\\N)N[N+](=O)[O-]", "inhibition": "inactive: -13.3%"}, {"smiles": "CC(C)(C)C(=O)NC(Sc1ncccn1)C(Cl)(Cl)Cl", "note": "(stereo not given)", "inhibition": "inactive: -0.691%"}, {"smiles": "CCOP(=O)(Nc1ccc(C)cn1)OCC", "inhibition": "inactive: -4.46%"}, {"smiles": "CCOP(=O)(NC(=NC(C)c1ccccc1)NC(C)c1ccccc1)OCC", "note": "(stereo not given)", "inhibition": "inactive: 1.68%"}, {"smiles": "CCC1=CC2Cc3nc4ccc(Cl)cc4c(N)c3C(C1)C2", "note": "(stereo not given)", "inhibition": "inactive: 3.3%"}, {"smiles": "O=P1(Nc2ccccn2)COc2ccccc2OC1", "inhibition": "inactive: -1.64%"}, {"smiles": "NS(=O)(=O)c1cccc(NC(=O)COC(=O)C(O)(c2ccccc2)c2ccccc2)c1", "inhibition": "inactive: 1.8%"}, {"smiles": "O=P1(Nc2ccc(Br)cn2)COc2ccccc2OC1", "inhibition": "inactive: -1.41%"}, {"smiles": "O=[As](O)(c1cccs1)c1cccs1", "inhibition": "inactive: 0.621%"}, {"smiles": "Cc1ccc(OCC(=O)OC2CN3CCC2CC3)cc1", "note": "(stereo not given)", "inhibition": "inactive: -0.189%"}, {"smiles": "Nc1cccc([As](=O)(O)c2ccccc2)c1", "inhibition": "inactive: 4.56%"}, {"smiles": "O=P1(Nc2ncccn2)COc2ccccc2OC1", "inhibition": "inactive: 6.47%"}, {"smiles": "CCCC1OP(=O)(Nc2ccccc2)OCC1CC", "note": "(stereo not given)", "inhibition": "inactive: -2.47%"}]}]}
